Target: biotinylated rStx2aB (rStx2aB with human IgA1 hinge and biotin acceptor domain) (Escherichia coli O157:H7 EDL933 …, biotin (in vivo biotinylation on the biotin acceptor domain))
Conditions: both partners purified

B1: Nb113 (expressed from pMECS, C-terminal HA and His6 tags) (VHH)
VHH: QVQLQESGGGLVQPGGSLRLSCAASGFTFSSYYMSWVRQAPGKGPEWVSGINTGGVGTRYADSVKGRFTISRDNAKNTLYLQMNSLKPEDTALYYCAIGEGGNRNYWGQGTQVTVSS
notes: source: E. coli WK6 (pMECS), periplasmic extract, purified (IMAC, SEC)
Q: Which Kd does the source give for B1 here?
A: 9.6 nM

Q: What about the koff of the same binder?
A: 0.0019 s⁻¹

Q: What about the kon of the same binder?
A: 195000 M⁻¹ s⁻¹

Q: What about the “stoichiometry N” value of the same binder?
A: 4.52 per pentameric rStx2aB
